Reference: patent US8269014B2, “Thiophene analogues for the treatment or prevention of flavivirus infections” (Vertex Pharmaceuticals (Canada) Incorporated, priority 2006, dated 2012)
This is a selection: effects in other tests are not listed, and their absence says nothing.

Test system: HCV replicon cells (Huh-7 ET cells)
Conditions: Ratio of CC50/IC50 in HCV replicon cells (Huh-7 ET cells); average TI when tested more than once

Row | SMILES | TI
1 | CC1CCC(C(=O)N(c2cc(-c3ccccc3)sc2C(=O)O)C2CCN(C)CC2)CC1.Cl (centres unmarked) | ++++ (++++: 2000-4000)
2 | CN1CCC(N(c2cc(C#CC(C)(C)C)sc2C(=O)O)C(=O)[C@H]2CC[C@H](C)CC2)CC1.Cl (relative stereo) | ++++++ (++++++: >6000)
